{"source": "patent US20190060284A1", "about": "“PHARMACOLOGICAL MODULATORS OF NAV1.1 VOLTAGE-GATED SODIUM CHANNELS ASSOCIATED WITH MECHANICAL PAIN” (priority 2016, published 2019)", "key": {"ATF3": {"tested_on": "ATF3", "type": "in vivo, mouse", "settings": "after toxin injection", "description": "Affymetrix was commissioned to design a Type 1 probe set to mouse Nav1.1 (Scn1a, NM_018733.2) and Type 6 probe sets to mouse TRPV1 (TrpV1, NM_001001445.2), mouse Nav1.7 (Scn9a, NM_001290674.1), mouse 5HT3 (Htr3a, NM_001099644.1), and mouse TRPM8 (Trpm8, NM_134252.3) coding regions. We used the following primary antibodies: mouse anti-NF200 (1:10,000, Sigma), rabbit anti-CGRP (1:10,000, Peninsula Labs), and rabbit anti-TH (1:5,000, AbCam). We used fluorophore-conjugated secondary antibodies raised in goat against mouse or rabbit, as appropriate (1:1,000, Alexa Fluor 488, Life Technologies). To identify IB4-binding cells, biotinylated IB4 (1:1,000, Vector Labs) and fluorophore-conjugated streptavidin (1:1,000, Alexa Fluor 488, Life Technologies) were used in place of primary and secondary antibodies. Fos staining was performed 90 minutes after hindpaw injection of Hm1a or PBS. Spinal cord sections were prepared from lumbar L4/L5 and stained with rabbit anti-Fos (1:5,000, CalBiochem). ATF3 antibody (Santa Cruz Biotechnology) was used at 1:2000."}, "injected paw": {"tested_on": "injected paw", "settings": "intraplantar Hm1a"}}}
{"compound": "CC(C)C[C@@H]1NC(=O)[C@H](Cc2ccc(O)cc2)NC(=O)[C@H](CCCNC(=N)N)NC(=O)[C@@H](NC(=O)[C@@H](N)CCC(=O)O)CSSC[C@@H]2NC(=O)[C@@H]3CSSC[C@@H](C(=O)N[C@@H](C)C(=O)N[C@@H](Cc4c[nH]c5ccccc45)C(=O)N[C@@H](CC(=O)O)C(=O)NCC(=O)N[C@H](C(=O)N[C@@H](Cc4ccccc4)C(=O)N[C@@H](CO)C(=O)O)[C@@H](C)O)NC(=O)[C@H](Cc4ccc(O)cc4)NC(=O)[C@H](CCCCN)NC(=O)[C@H](Cc4c[nH]c5ccccc45)NC(=O)[C@H](CC(=O)O)NC(=O)[C@H](CO)NC(=O)[C@H](CCCNC(=N)N)NC(=O)[C@H](CSSC[C@H](NC(=O)CNC(=O)CNC(=O)[C@H](Cc4ccccc4)NC1=O)C(=O)N[C@@H](CO)C(=O)N[C@@H](CO)C(=O)N[C@@H]([C@@H](C)O)C(=O)N[C@@H](CO)C(=O)N[C@@H](CC(=O)O)C(=O)N3)NC(=O)[C@H](CO)NC(=O)[C@H](CC(C)C)NC(=O)[C@H](Cc1c[nH]cn1)NC(=O)[C@H](CCCCN)NC2=O", "note": "[Hm1a, δ-theraphotoxin-Hm1a]", "values": [{"measurement": "expression of ATF3", "setting": "ATF3", "result": "fails to induce expression of ATF3"}, {"measurement": "swelling of the injected paw", "setting": "injected paw", "result": "does not produce"}, {"measurement": "plasma extravasation of the injected paw", "setting": "injected paw; Evans blue dye", "result": "does not produce"}]}
